Data: patent US6566344B1, “β-L-2′-deoxy-nucleosides for the treatment of hepatitis B” (priority 1998, dated 2003)

system: hepatitis B virus; assay: Anti-hepatitis B virus activity in transfected Hep G-2 (2.2.15) cells; type: cell-based; details: cytotoxicity IC50 / EC50

Compound	Selectivity Index IC50/EC50
O=c1ccn([C@@H]2C[C@@H](O)[C@H](CO)O2)c(=O)[nH]1 [β-L-dU, β-L-2′-deoxyuridine]	>40
O=c1[nH]cnc2c1ncn2[C@@H]1C[C@@H](O)[C@H](CO)O1 [β-L-dI, 2′-deoxy-β-L-inosine]	>200
Nc1ccn([C@@H]2C[C@@H](O)[C@H](CO)O2)c(=O)n1 [β-L-dC, 2′-Deoxy-β-L-cytidine]	>4000
Cc1cn([C@@H]2C[C@@H](O)[C@H](CO)O2)c(=O)[nH]c1=O [β-L-dT, 2′-Deoxy-β-L-Thymidine]	>4000
Nc1ncnc2c1ncn2[C@@H]1C[C@@H](O)[C@H](CO)O1 [β-L-dA, 2′-Deoxy-β-L-adenosine]	>2000
